Compound potency records, mixed from different reports. Data source: NIAID ChemDB in PubChem.

Shared fields: tests in culture; agent: Human herpesvirus 6; read-out: EC50

Rows are shuffled and stem from different studies.

O=C(NCc1ccc(Cl)cc1)c1cn2c3c(cc(CN4CCOCC4)cc3c1=O)OC(c1cccnc1)C2 ; method: antigen / flow cytometry ; strain: Z-29 (TYPE B) ; cell line: CBL ; result: >18.8 µM
Cc1cn([C@H]2C[C@H](N=[N+]=[N-])[C@@H](CO)O2)c(=O)[nH]c1=O ; method: antigen ; strain: GS ; cell line: HSB-2 ; result: >200 µM
O[C@@H]1[C@H](O)CO[C@H]1n1c(Br)nc2cc(Cl)c(Cl)cc21 ; method: hybridisation ; strain: 6B ; cell line: MOLT-3 ; result: 72 µM
N#CC1C(c2ccccc2)Nc2sccc2S1(=O)=O ; method: cytopathic effect ; strain: GS (TYPE 6A) ; cell line: HSB-2 ; result: >20 µg/mL
OCC1OC(n2c(Br)nc3cc(Cl)c(Cl)cc32)C(O)C1O ; method: hybridisation ; strain: 6B ; cell line: MOLT-3 ; result: 45 µM
Nc1ccn(C[C@@H](CO)OCP(=O)(O)O)c(=O)n1 ; strain: TYPE 6B ; cell line: MOLT-3 ; result: 3.1 µg/mL
Cn1cc(C(=O)NCc2ccc(Cl)cc2)c(=O)c2cc(CN3CCOCC3)ccc21 ; method: antigen / flow cytometry ; strain: GS (TYPE A) ; cell line: HSB-2 ; result: >20.1 µM
Nc1nc(NC2CC2)c2ncn(/C=C3/C[C@@H]3CO)c2n1 ; method: flow cytometry ; strain: TYPE 6B ; cell line: CBL ; result: 1.6 µM
CC(C)Nc1nc2cc(Cl)c(Cl)cc2n1[C@H]1O[C@@H](CO)[C@H](O)[C@@H]1O ; method: flow cytometry ; strain: Z-29 (subtype 6B) ; cell line: CBL ; result: >106 µM
Nc1nc2c(ncn2[C@@H]2C[C@H](CO)[C@H]2CO)c(=O)[nH]1 ; strain: Z-29 (subtype 6B) ; cell line: MOLT-3 ; result: 4.85 µg/mL
Nc1ncnc2c1ncn2/C=C1/CC1(CO)CO ; method: flow cytometry ; strain: TYPE 6B ; cell line: HSB-2 ; result: 4.6 µM
Nc1nc2c(ncn2COC(CO)CO)c(=O)[nH]1 ; strain: Z-29 (subtype 6B) ; cell line: MOLT-3 ; result: 15 µg/mL
N#CC1C(c2ccc(Cl)cc2)Nc2sccc2S1(=O)=O ; method: cytopathic effect ; strain: GS (TYPE 6A) ; cell line: HSB-2 ; result: 1.8 µg/mL
Nc1nc2c(ncn2[C@H]2C=C[C@@H](CO)CC2)c(=O)[nH]1 ; method: cytopathic effect ; cell line: Human T-lymphoblasts ; result: 3.9 µM
Nc1nc2c(ncn2C[C@]2(CO)C[C@H]2CO)c(=O)[nH]1 ; method: cytopathic effect ; strain: Z-29 (subtype 6B) ; cell line: MOLT-3 ; result: 3.39 µg/mL
COc1nc(N)nc2c1ncn2/C=C1/CC1(CO)CO ; method: flow cytometry ; strain: TYPE 6A ; cell line: HSB-2 ; result: 28.4 µM
Nc1nc2c(ncn2COC(CO)CO)c(=O)[nH]1 ; method: cytopathic effect ; cell line: Human T-lymphoblasts ; result: 6.8 µM
O[C@@H]1[C@H](O)[C@H](O)CO[C@H]1n1c(Br)nc2cc(Cl)c(Cl)cc21 ; method: flow cytometry ; strain: GS (subtype 6A) ; cell line: HSB-2 ; result: >125 µM
Nc1nc(OCC2CC2)c2ncn(/C=C3/C[C@@H]3CO)c2n1 ; method: flow cytometry ; strain: TYPE 6A ; cell line: HSB-2 ; result: 3.1 µM
Nc1nc2c(ncn2CC(CO)CCO)c(=O)[nH]1 ; method: antigen ; strain: GS ; cell line: HSB-2 ; result: 14 µM
CCCOc1nc(N)nc2c1ncn2/C=C1/C[C@@H]1CO ; method: flow cytometry ; strain: TYPE 6A ; cell line: HSB-2 ; result: 1.1 µM
Cc1c(S(=O)(=O)c2ccc(Cl)cc2)c(NC(=O)C(F)(F)F)n(Cc2ccc(Cl)cc2)c1C ; method: hybridisation ; strain: GS (TYPE 6A) ; cell line: HSB-2 ; result: ≥10 µg/mL
O=c1[nH]c(=O)n([C@@H]2O[C@H](CO)[C@@H](O)[C@@H]2O)cc1/C=C/Br ; method: antigen ; strain: GS ; cell line: HSB-2 ; result: >80 µM
Cc1c(S(=O)(=O)c2ccc(Cl)cc2)c(NC(=O)C(F)(F)F)n(Cc2ccccc2)c1C ; method: cytopathic effect ; strain: GS (TYPE 6A) ; cell line: HSB-2 ; result: 2.2 µg/mL
NC(=O)c1c(Cl)c(-c2cccnc2)n2c1CCCC2 ; method: hybridisation ; strain: TYPE A (GS) ; cell line: CBLC ; result: 0.017 µM
Cn1cc(C(=O)NCc2ccc(Cl)cc2)c(=O)c2cc(CN3CCOCC3)ccc21 ; method: cytopathic effect ; strain: 1 isolates ; result: >100 µM
O=C(O)P(=O)(O)O ; method: hybridisation ; strain: Z29 (TYPE 6B) ; cell line: MOLT-3 ; result: 25.4 µM
C[C@H]1O[C@@H](n2c(NC3CC3)nc3cc(Cl)c(Cl)cc32)[C@H](O)[C@@H]1O ; method: hybridisation ; strain: 6B ; cell line: MOLT-3 ; result: >100 µM
Nc1nc2c(ncn2[C@@H]2C[C@H](CO)[C@H]2CO)c(=O)[nH]1 ; method: cytopathic effect ; cell line: Human T-lymphoblasts ; result: 2.4 µM
OC[C@@H]1O[C@@H](n2c(Br)nc3cc(Cl)c(Cl)cc32)[C@H](O)[C@H]1O ; method: hybridisation ; strain: 6a ; cell line: HSB-2 ; result: 2.8 µM
Nc1nc(NCC2CC2)c2ncn(/C=C3/C[C@@H]3CO)c2n1 ; method: flow cytometry ; strain: TYPE 6B ; cell line: HSB-2 ; result: 90 µM
Nc1ncc2c(ncn2COC(CO)CO)n1 ; method: cytopathic effect ; cell line: Human cord blood lymphocytes ; result: 0.0072 µM
Nc1nc2c(ncn2CCC(CO)CO)c(=O)[nH]1 ; method: cytopathic effect ; strain: GS (subtype 6A) ; cell line: HSB-2 ; result: 71 µg/mL

The last 5 rows once more:

smiles,method,strain,cell line,result
Nc1nc2c(ncn2[C@@H]2C[C@H](CO)[C@H]2CO)c(=O)[nH]1,cytopathic effect,-,Human T-lymphoblasts,2.4 µM
OC[C@@H]1O[C@@H](n2c(Br)nc3cc(Cl)c(Cl)cc32)[C@H](O)[C@H]1O,hybridisation,6a,HSB-2,2.8 µM
Nc1nc(NCC2CC2)c2ncn(/C=C3/C[C@@H]3CO)c2n1,flow cytometry,TYPE 6B,HSB-2,90 µM
Nc1ncc2c(ncn2COC(CO)CO)n1,cytopathic effect,-,Human cord blood lymphocytes,0.0072 µM
Nc1nc2c(ncn2CCC(CO)CO)c(=O)[nH]1,cytopathic effect,GS (subtype 6A),HSB-2,71 µg/mL

Blank or dashed fields: not listed here. ECn is the concentration giving n% inhibition of infection, replication or growth.